Measured values from several laboratories, pooled; numbers as filed in NIAID ChemDB.

All rows: whole-cell or culture tests; species: Cryptococcus neoformans

Inhibition is in % at the dose shown (toxicity tests: loss of growth or viability). ECn: concentration that inhibits the pathogen or its effect by n%. A number after MIC or MFC names an inhibition level or a share of isolates. Conditions beyond the fields shown may differ between rows. Blank or dashed fields: not listed here.

structure | strain or isolate | method | read-out | dose | result
CCC(C)n1ncn(-c2ccc(N3CCN(c4ccc(OC[C@H]5CO[C@](Cn6cncn6)(c6ccc(Cl)cc6Cl)O5)cc4)CC3)cc2)c1=O | 37 strains | - | MIC90 | - | 0.25 µg/mL
CC(C(O)(Cn1cncn1)c1ccc(F)cc1F)S(C)(=O)=O | R716 (AZOLE-R) | - | EC50 | - | 4 µM
CCOC(=O)c1c(C)nc(NCCCCNc2ccnc3cc(Cl)ccc23)nc1-c1ccccc1[N+](=O)[O-] | ATCC 28957 | - | MIC99 | - | 1.4 µg/mL
CC(C)N=C(N)c1ccc2nc(-c3ccc4c(c3)Cc3cc(-c5nc6ccc(C(N)=NC(C)C)cc6[nH]5)ccc3-4)[nH]c2c1 | 9 strains | - | Geometric mean MIC | - | 1.03 µg/mL
CC(=O)OC[C@H]1O[C@@H](O[C@@H]2[C@@H](N=[N+]=[N-])[C@H](O)[C@H](O)[C@H]3OC(C)(C)O[C@H]32)[C@H](OC(C)=O)[C@@H](OC(C)=O)[C@H]1OC(C)=O | ATCC 32264 | broth dilution / turbidity | inhibition | 62.5 µg/mL | 15.48%
CCOC(=O)c1c(C)nc(NCCCCNc2ccnc3cc(Cl)ccc23)nc1-c1ccc(F)cc1 | ATCC 62066 | - | MIC99 | - | 8 µg/mL
C[C@H]1[C@H](O)[C@@H](C)/C=C/C=C/C=C/C=C/C=C/C=C/C=C/[C@H](O[C@@H]2O[C@H](C)[C@@H](O)[C@H](N)[C@@H]2O)C[C@@H]2O[C@](O)(C[C@@H](O)C[C@@H](O)CC[C@H](O)[C@@H](O)C[C@@H](O)CC(=O)O[C@H]1C)C[C@H](O)[C@H]2C(=O)O | A28201 | - | MFC99 | - | 0.5 µg/mL
Oc1cccc(C=Nc2ccccc2O)c1 | ATCC 24067 | - | MIC99 | - | 2.8 µg/mL
Cn1nc(Cc2ccc(Cl)cc2)c2ccccc2c1=O | ATCC 32264 | broth dilution | MFC | - | 15.6 µg/mL
C=C1CO[C@H]2[C@@H](C)OC(OC[C@@]34C[C@H]5[C@H](C)CC[C@@H]5[C@@]5(C=O)C[C@@H]3C=C(C(C)C)[C@@]45C(=O)O)C[C@@H]12 | 15 strains (serotype B) | - | MIC50 | - | 1 µg/mL
Oc1ccc(O)c(C=Nc2ccccc2O)c1 | WP | - | MIC99 | - | 8 µg/mL
NCCCC[C@H](NC(=O)[C@@H](N)CCCCN)C(=O)N[C@@H](CCC(N)=O)C(=O)N[C@@H](CCCN=C(N)N)C(=O)O | ATCC 32264 | - | inhibition | 32 µM | 12.5%
CN[C@H]1CC[C@@H](c2ccc(Cl)c(Cl)c2)c2ccccc21 | 92BC1-52 | broth dilution | MIC90 | - | 3 µg/mL
Oc1ccccc1N=Cc1ccc(F)cc1 | ATCC 28957 | - | MIC99 | - | 4 µg/mL
C[C@@H](n1ncn(-c2ccc(OCC(F)(F)C(F)F)cc2)c1=O)[C@](O)(Cn1cncn1)c1ccc(F)cc1F | DUMC 125.96 | - | MFC | - | >16 µg/mL
Oc1ccccc1N=Cc1cccc(O)c1O | LMM 820 | - | MIC99 | - | 4 µg/mL
C[C@@H](n1cnc2cc(Cl)ccc2c1=O)[C@](O)(Cn1cncn1)c1ccc(F)cc1F | Isolate H99 | - | MFC | - | 20 µg/mL
NC(=S)N/N=C(\N)c1ccccn1 | ATCC 24067D2 | - | MIC100 | - | 52.53 µM